Results of unrelated studies side by side (data: NIAID ChemDB).

All rows: growth or infection tests; species: HIV-1; cells: CEM; measure: EC50

Blank or dashed fields: not listed here. ECn is the concentration giving n% inhibition of infection, replication or growth. Neighbouring rows are from separate reports.

SMILES	strain or isolate	mutations	read by	value
CO[C@]12CS(=O)(=O)O[C@@]13C(CN2)O[C@@H](n1cc(C)c(=O)[nH]c1=O)[C@@H]3O[Si](C)(C)C(C)(C)C	IIIB			5.5 µM
CCCCCOC(=S)Nc1ccc(Cl)c(C(=O)OC(C)C)c1		RT-V106A	syncytia	29.08 µM
CCOCn1c(Sc2ccccc2)c(C(C)C)c(=O)[nH]c1=S	IIIB	RT-E138K	syncytia	0.09 µM
CC(C)OC(=O)c1cc(NC(=S)N(C)C(C)C)ccc1Cl	IIIB		syncytia	>30.32 µM
Cc1cc(C)cc(Cc2c(C(C)C)c(=O)[nH]c(=O)n2COCCO)c1	IIIB (TIBO 82150) (RT-L100I)	RT-L100I	syncytia	0.8 µM
C=CCO[C@]12CS(=O)(=O)O[C@@]13[C@@H](CN2)O[C@@H](n1cc(C)c(=O)[nH]c1=O)[C@@H]3O[Si](C)(C)C(C)(C)C	IIIB			15 µM
CCc1c(Cc2cc(C)cc(C)c2)n(COCCO)c(=O)[nH]c1=O	IIIB	RT-Y188H	syncytia	>10 µM
COCCOC(=O)c1cc(NC(=O)C2=C(C)OCCS2)ccc1Cl	TIBO-resistant (RT L100I)	RT-L100I	syncytia	7.5 µg/mL
Cc1cn([C@@H]2O[C@@H]3CN[C@@]4(O[Si](C)(C)C(C)(C)C)CS(=O)(=O)O[C@@]34[C@H]2O[Si](C)(C)C(C)(C)C)c(=O)[nH]c1=O	IIIB			>2 µM
CCCCCOC(=O)c1cc(NC(=O)C2=C(C)OCCS2)ccc1Cl	Nevirapine-resistant (RT V106A)	RT-V106A	syncytia	10 µg/mL
CCCCCCCCCC[N+](C)(C)CCCNCc1c(O)cc2c(c1O)-c1cc(ccc1O)[C@H]1NC(=O)[C@@H]3NC(=O)C4NC(=O)[C@@H](Cc5ccc(c(Cl)c5)Oc5cc3cc(c5O)Oc3ccc(cc3Cl)[C@@H](O)[C@H](NC1=O)C(=O)N[C@@H]2C(=O)O)NC(=O)[C@H](N)c1ccc(O)c(c1)Oc1cc(O)cc4c1		RT-L100I	syncytia	5.3 µM
CSc1ccc(NC(=S)OC(C)C)cc1C(=O)OC(C)C		RT-L100I	syncytia	2.596 µM
Cc1ccc(C)c(CSc2c(Cl)ccc[n+]2[O-])c1	IIIB	RT-Y181C	syncytia	≥20 µg/mL
CCc1c(Sc2cc(C)cc(C)c2)n(COCCO)c(=O)[nH]c1=O	IIIB	RT-E138K	syncytia	0.03 µM
CC1=C(C(=O)Nc2ccc(Cl)c(C(=O)OC3CCCCC3C)c2)SCCO1	TSAO-resistant (RT E138K)	RT-E138K	syncytia	0.75 µg/mL
O=C(Nc1ccc(Cl)c(C(=O)OC2CCCCC2)c1)c1ccccc1F	IIIB	RT-Y181C	syncytia	5 µg/mL
CCSCC1=C(C(=O)Nc2ccc(Cl)c(C(=O)OC(C)C)c2)SCCO1	IIIB		syncytia	3 µg/mL
CCCOC(=O)c1cc(NC(=S)OC(C)C)ccc1Cl		RT-Y181C	syncytia	5.699 µM
CCCOC12CS(=O)(=O)OC13[C@@H](CN2)O[C@@H](n1cc(C)c(=O)[nH]c1=O)[C@@H]3O[Si](C)(C)C(C)(C)C	IIIB			1.4 µM
CCOCn1c(Sc2ccccc2)c(C(C)C)c(=O)[nH]c1=O	IIIB TIBO R82913-resistant (RT K103N)	RT-K103N	syncytia	5 µM
CC(C)OC(=S)Nc1ccc(Cl)c(C(=O)OC2CC2)c1		RT-Y181C	syncytia	2.549 µM
Cc1ccc(C)c(CS(=O)(=O)c2ccccn2)c1	IIIB	RT-E103K	syncytia	>20 µg/mL
CC(C)c1c(Sc2ccccc2)n(COCc2ccccc2)c(=S)[nH]c1=O	IIIB TIBO R82913-resistant (RT K103N)	RT-K103N	syncytia	1.5 µM
CCCCO[C@]12CS(=O)(=O)O[C@@]13C(CN2)O[C@@H](n1cc(C)c(=O)[nH]c1=O)[C@@H]3O[Si](C)(C)C(C)(C)C	IIIB			>10 µM
CC(C)OC(=S)Nc1ccc(Cl)c(C(=O)OCc2ccccc2)c1	IIIB		syncytia	0.962 µM
O=C1c2ccccc2C(=O)N1C1CC2CC3CC(C2)CC1C3	IIIB		syncytia	>4 µg/mL
CC(C)OC(=O)Oc1cc(NC(=S)OC(C)C)ccc1Cl	IIIB		syncytia	1.205 µM
Cc1ccc(C)c(CS(=O)(=O)c2cccc[n+]2[O-])c1	HE		syncytia	11 µg/mL
CCC(CC)COC(=O)c1cc(NC(=S)OC(C)C)ccc1Cl		RT-L100I	syncytia	1.397 µM
CCS[C@]12CS(=O)(=O)O[C@@]13[C@@H](CN2)O[C@@H](n1cc(C)c(=O)[nH]c1=O)[C@@H]3O[Si](C)(C)C(C)(C)C	IIIB			32.5 µM
O=C(O)c1ccccc1C(=O)NC12CC3CC(C1)CC(C(=O)O)(C3)C2	IIIB		syncytia	>100 µg/mL
CC(C)OC(=O)c1cc(NC(=O)OCC2CC2)ccc1Cl	IIIB		syncytia	1.443 µM
O=[N+]([O-])c1ccc[n+]([O-])c1SCc1ccccc1	IIIB	RT-E103K	syncytia	≥20 µg/mL
CCOCn1c(Sc2cc(C)cc(C)c2)c(CC)c(=O)[nH]c1=O	IIIB TIBO R82913-resistant (RT K103N)	RT-K103N	syncytia	0.07 µM
CCOC(=O)c1cc(NC(=O)C2=C(CC)OCCS2)ccc1Cl	PYR-resistant (RT Y181C)	RT-Y181C	syncytia	7 µg/mL
C=CCOc1cc(NC(=S)OC(C)C)ccc1Cl		RT-E138K	syncytia	5.249 µM
Nc1cccc2c1C(=O)N(C13CC4CC(CC(C4)C1)C3)C2=O	IIIB		syncytia	>4 µg/mL
C=CCOC(=S)Nc1ccc(Cl)c(C(=O)OC(C)C)c1		RT-Y181C	syncytia	17.53 µM
O=C1c2ccccc2[C@@]2(O)[C@H]3C4CC5CC(C4)CC3(C5)CN12	IIIB		syncytia	>4 µg/mL
COc1ccc(C)cc1CS(=O)(=O)c1cccc[n+]1[O-]	MN		syncytia	40 µg/mL
CC(C)OC(=S)Nc1ccc(Cl)c(C(=O)OCC[Si](C)(C)C)c1		RT-E138K	syncytia	18.72 µM
COC(=O)Oc1ccc(NC(=O)C2=C(C)OCCS2)cc1C(=O)OC(C)C	TIBO-resistant (RT L100I)	RT-L100I	syncytia	>10 µg/mL
Cc1ccc(C(C)S(=O)(=O)c2c(C)ccc[n+]2[O-])c(C)c1	IIIB	RT-K103N	syncytia	50 µg/mL
Cc1ccccc1OC(=O)c1cc(NC(=S)OC(C)C)ccc1Cl		RT-V106A	syncytia	≥27.48 µM
C#CCO[C@]12CS(=O)(=O)O[C@@]13[C@@H](CN2)O[C@@H](n1cc(C)c(=O)[nH]c1=O)[C@@H]3O[Si](C)(C)C(C)(C)C	IIIB			>25 µM
CCOC(=O)C(C)Oc1cc(NC(=S)OC(C)C)ccc1Cl		RT-E138K	syncytia	5.783 µM
COC(=O)c1cc(NC(=O)C2=C(C)OCCS2)ccc1Cl	PYR-resistant (RT Y181C)	RT-Y181C	syncytia	>10 µg/mL
CCOC(=O)c1cc(NC(=S)OC(C)C)ccc1SC		RT-E138K	syncytia	12.76 µM
CCCCCO[C@]12CS(=O)(=O)O[C@@]13[C@@H](CN2)O[C@@H](n1cc(C)c(=O)[nH]c1=O)[C@@H]3O[Si](C)(C)C(C)(C)C	IIIB			>5 µM
CC(C)OC(=O)Nc1ccc(Cl)c(C(=O)OC(C)C)c1		RT-V106A	syncytia	>33.36 µM
CC(C)=CCOc1cc(NC(=S)c2ccoc2C)ccc1Cl	IIIB	RT-V179D	syncytia	0.017 µM
CC(C)OC(=O)c1cc(NC(=S)OCC2(C)COC2)ccc1Cl	IIIB		syncytia	>27.94 µM
Cc1occc1C(=S)Nc1ccc(Cl)c(/C=N/OC(C)(C)C)c1	IIIB		syncytia	0.142 µM
Cc1cccc(CS(=O)(=O)c2cccc[n+]2[O-])c1	IIIB		syncytia	6.8 µg/mL
CC(C)OC(=S)Nc1ccc(Cl)c(C(=O)OCC2CC2)c1	IIIB		syncytia	0.122 µM

8 of the rows above, restated:

CCCCCOC(=S)Nc1ccc(Cl)c(C(=O)OC(C)C)c1 ; mutations: RT-V106A ; read by: syncytia ; value: 29.08 µM
CC(C)OC(=O)c1cc(NC(=S)N(C)C(C)C)ccc1Cl ; strain or isolate: IIIB ; read by: syncytia ; value: >30.32 µM
COCCOC(=O)c1cc(NC(=O)C2=C(C)OCCS2)ccc1Cl ; strain or isolate: TIBO-resistant (RT L100I) ; mutations: RT-L100I ; read by: syncytia ; value: 7.5 µg/mL
CCOCn1c(Sc2cc(C)cc(C)c2)c(CC)c(=O)[nH]c1=O ; strain or isolate: IIIB TIBO R82913-resistant (RT K103N) ; mutations: RT-K103N ; read by: syncytia ; value: 0.07 µM
CO[C@]12CS(=O)(=O)O[C@@]13C(CN2)O[C@@H](n1cc(C)c(=O)[nH]c1=O)[C@@H]3O[Si](C)(C)C(C)(C)C ; strain or isolate: IIIB ; value: 5.5 µM
CCc1c(Sc2cc(C)cc(C)c2)n(COCCO)c(=O)[nH]c1=O ; strain or isolate: IIIB ; mutations: RT-E138K ; read by: syncytia ; value: 0.03 µM
CSc1ccc(NC(=S)OC(C)C)cc1C(=O)OC(C)C ; mutations: RT-L100I ; read by: syncytia ; value: 2.596 µM
Nc1cccc2c1C(=O)N(C13CC4CC(CC(C4)C1)C3)C2=O ; strain or isolate: IIIB ; read by: syncytia ; value: >4 µg/mL